Measured values from several laboratories, pooled; numbers as filed in NIAID ChemDB.

Common to all: growth or infection tests; agent: Aspergillus fumigatus

Blank or dashed fields: not listed here. a–b is a range or a potency band. A number after MIC or MFC names an inhibition level or a share of isolates. Lines come from different laboratories, so protocols vary. ECn: concentration that inhibits the pathogen or its effect by n%.

compound,strain or isolate,mutations,read-out,read by,result
CCOC(=O)C1=C(N)N(c2nc(-c3ccccc3)cs2)C2=C(C(=O)CCC2)C1c1cc2cc(Cl)ccc2nc1F,MTCC 3008,,MIC,broth dilution,500 µg/mL
CCc1nc(N)nc(N)c1-c1ccc(Cl)cc1,20 isolates,,Geometric mean MIC,,>4 µg/mL
CN(C/C=C/C#CC(C)(C)C)Cc1cccc2ccccc12,NFI 4001,,MIC,,2 µg/mL
CCC(C)n1ncn(-c2ccc(N3CCN(c4ccc(OC[C@H]5CO[C@](Cn6cncn6)(c6ccc(Cl)cc6Cl)O5)cc4)CC3)cc2)c1=O,,,MIC90,,1–8 µg/mL
S=C=NCc1ccccc1,,,MIC,broth dilution,9 µg/mL
C=C1/C=C(\C)[C@H](CC)OC(=O)[C@H](C)C(=O)C(O)(CO)C/C(OC)=C/[C@@H](C)C1,IAM2034,,MFC,,>20 µg/mL
Cc1ccc2nc(F)c(C3C(C#N)=C(N)N(c4nc(-c5ccc(O)cc5)cs4)C4=C3C(=O)CCC4)cc2c1,MTCC 3008,,MIC,broth dilution,>1000 µg/mL
OC(CCl)CN1CCN(C(c2ccccc2)c2ccc(Cl)cc2)CC1,ATCC 96918,,MIC,broth dilution,100 µg/mL
COc1cc(C)c2c(=O)c3c(O)cc(O)cc3oc2c1,CGMCC 3.5835,,EC50,resazurin,>250 µM
O=C(O)/C=C/c1ccc(O)c(O)c1,,,MIC50,agar,>1000 µg/mL
N#CC1=C(N)N(c2nc(-c3ccccc3)cs2)C2=C(C(=O)CCC2)C1c1cc2ccccc2nc1F,MTCC 3008,,MIC,broth dilution,>1000 µg/mL
O=c1ccc2cc(O)ccc2o1,ATCC 16913,,MIC,,>1000 µg/mL
Nc1ccc(S(=O)(=O)Nc2ncccn2)cc1,20 isolates,,Geometric mean MIC,,39.2 µg/mL
C[C@H]1[C@H](O)[C@@H](C)/C=C/C=C/C=C/C=C/C=C/C=C/C=C/[C@H](O[C@@H]2O[C@H](C)[C@@H](O)[C@H](N)[C@@H]2O)C[C@@H]2O[C@](O)(C[C@@H](O)C[C@@H](O)CC[C@H](O)[C@@H](O)C[C@@H](O)CC(=O)O[C@H]1C)C[C@H](O)[C@H]2C(=O)O,,,MIC,,0.06–8 µg/mL
CN(C/C=C/C#CC(C)(C)C)Cc1cccc2ccccc12,,TR34 azole-resistant,MIC90,broth dilution,16 µg/mL
CN(C)CCCC1(c2ccc(F)cc2)OCc2cc(C#N)ccc21,10 clinical isolates,,MFC,,625–2500 µg/mL
Nc1ccc2oc(=O)ccc2c1,ATCC 16913,,MIC,,1000 µg/mL
N#CC1=C(N)N(c2nc(-c3ccc(Cl)cc3)cs2)C2=C(C(=O)CCC2)C1c1cc2ccccc2nc1F,MTCC 3008,,MIC,broth dilution,500 µg/mL
Cc1ccc(C(C)C)cc1O,,,MIC100,agar,131 µg/mL
COc1ccc(CN=C=S)cc1,,,MIC,broth dilution,1 µg/mL
C[C@H]1[C@H](O)[C@@H](C)/C=C/C=C/C=C/C=C/C=C/C=C/C=C/[C@H](O[C@@H]2O[C@H](C)[C@@H](O)[C@H](N)[C@@H]2O)C[C@@H]2O[C@](O)(C[C@@H](O)C[C@@H](O)CC[C@H](O)[C@@H](O)C[C@@H](O)CC(=O)O[C@H]1C)C[C@H](O)[C@H]2C(=O)O,NFI 4001,,MFC,,1 µg/mL
COc1cccc(CSC#N)c1,,,MFC,broth dilution,600 µg/mL
ClCCN1CCN(C(c2ccccc2)c2ccc(Cl)cc2)CC1,ATCC 96918,,MIC,broth dilution,200 µg/mL
CCN1CCN(C)CC1,ITCC 4517,,MIC,,250 µg/mL
Cc1cc2ncn(CC(=O)N3CCN(C(c4ccccc4)c4ccc(Cl)cc4)CC3)c2cc1C,ATCC 96918,,MIC,broth dilution,100 µg/mL
Cc1ccc2ccc(=O)oc2c1,ATCC 16913,,MIC,,1000 µg/mL
Nc1ccc(S(=O)(=O)c2ccc(N)cc2)cc1,20 isolates,,MFC,,>16 µg/mL
O=c1ccc2ccccc2o1,ATCC 16913,,MIC,,1000 µg/mL
O=C(CN1CCN(C(c2ccccc2)c2ccc(Cl)cc2)CC1)Cn1ccnc1-c1ccccc1,ATCC 96918,,MIC,broth dilution,25 µg/mL
CCCCCOc1ccc(-c2ccc(-c3ccc(C(=O)N[C@H]4C[C@@H](O)[C@@H](O)NC(=O)[C@@H]5[C@@H](O)[C@@H](C)CN5C(=O)[C@H]([C@H](C)O)NC(=O)[C@H]([C@H](O)[C@@H](O)c5ccc(O)cc5)NC(=O)[C@@H]5C[C@@H](O)CN5C(=O)[C@H]([C@H](C)O)NC4=O)cc3)cc2)cc1,ATCC 204305,,MIC,XTT,>128 µg/mL
COc1ccc(NS(=O)(=O)c2ccc(N)cc2)nn1,20 isolates,,MFC,,>400 µg/mL
COc1cc(O)c2c(c1)-c1cc(O)c(O)cc1COC2=O,CGMCC 3.5835,,EC50,resazurin,>250 µM
CC(C)=CCC/C(C)=C/CO,MTCC 2550,,MFC,broth dilution,288 µg/mL
O=C(Cn1nnc2ccccc21)N1CCN(C(c2ccccc2)c2ccc(Cl)cc2)CC1,ATCC 96918,,MIC,broth dilution,>400 µg/mL
COc1ccccc1CN=C=S,,,MIC,broth dilution,70 µg/mL
CCCCCOc1ccc(-c2cc(-c3ccc(C(=O)N[C@H]4C[C@@H](O)[C@@H](O)NC(=O)[C@@H]5[C@@H](O)[C@@H](C)CN5C(=O)[C@H]([C@H](O)CC(N)=O)NC(=O)[C@H]([C@H](O)[C@@H](O)c5ccc(O)c(OS(=O)(=O)O)c5)NC(=O)[C@@H]5C[C@@H](O)CN5C(=O)[C@H]([C@@H](C)O)NC4=O)cc3)no2)cc1,,,MIC90,,0.015 µg/mL
CC(=O)c1ccccc1O,,,MIC50,agar,70 µg/mL
C[C@@H](c1nc(-c2ccc(C#N)cc2)cs1)[C@](O)(Cn1cncn1)c1cc(F)ccc1F,,,MIC,,0.06–4 µg/mL
COc1cc(O)c2c(c1)C1=C[C@H](O)[C@@H](O)C[C@]1(C)OC2=O,CGMCC 3.5835,,EC50,resazurin,>250 µM
CCOC(=O)C1=C(N)N(c2nc(-c3ccccc3)cs2)C2=C(C(=O)CCC2)C1c1cc2cc(C)ccc2nc1F,MTCC 3008,,MIC,broth dilution,1000 µg/mL
Cc1ccc2occ(C(c3c(O)c4ccccc4oc3=O)c3c(O)c4ccccc4oc3=O)c(=O)c2c1,,,MIC,agar diffusion / agar,25 µg/mL
CCN1CCN(c2ccccc2OC)CC1,ITCC 4517,,MIC,,500 µg/mL
CCCCCOc1ccc(-c2ccc(-c3ccc(C(=O)N[C@H]4C[C@@H](O)[C@@H](O)NC(=O)[C@@H]5[C@@H](O)[C@@H](C)CN5C(=O)[C@H]([C@H](C)O)NC(=O)[C@H]([C@H](O)[C@@H](O)c5ccc(O)cc5)NC(=O)[C@@H]5C[C@@H](O)CN5C(=O)[C@H]([C@H](C)O)NC4=O)cc3)cc2)cc1,,,MIC90,,0.015 µg/mL
O=Cc1ccc2oc(=O)ccc2c1,ATCC 16913,,MIC,,1000 µg/mL
N#CC1=C(N)N(c2nc(-c3ccc(O)cc3)cs2)C2=C(C(=O)CCC2)C1c1cc2ccccc2nc1F,MTCC 3008,,MIC,broth dilution,500 µg/mL
O=c1oc2ccccc2c(O)c1C(c1c(O)c2ccccc2oc1=O)c1coc2ccccc2c1=O,,,MIC,agar diffusion / agar,25 µg/mL
O=c1ccc2cc(O)c(O)cc2o1,ATCC 16913,,MIC,,1000 µg/mL
COc1cc(O)c2c(c1)C1=C[C@@H](O)[C@H](O)C[C@]1(C)OC2=O,CGMCC 3.5835,,EC50,resazurin,>250 µM

The first 5 rows once more:

compound,strain or isolate,mutations,read-out,read by,result
CCOC(=O)C1=C(N)N(c2nc(-c3ccccc3)cs2)C2=C(C(=O)CCC2)C1c1cc2cc(Cl)ccc2nc1F,MTCC 3008,,MIC,broth dilution,500 µg/mL
CCc1nc(N)nc(N)c1-c1ccc(Cl)cc1,20 isolates,,Geometric mean MIC,,>4 µg/mL
CN(C/C=C/C#CC(C)(C)C)Cc1cccc2ccccc12,NFI 4001,,MIC,,2 µg/mL
CCC(C)n1ncn(-c2ccc(N3CCN(c4ccc(OC[C@H]5CO[C@](Cn6cncn6)(c6ccc(Cl)cc6Cl)O5)cc4)CC3)cc2)c1=O,,,MIC90,,1–8 µg/mL
S=C=NCc1ccccc1,,,MIC,broth dilution,9 µg/mL